Results of unrelated studies side by side (data: NIAID ChemDB).

Shared fields: whole-cell or culture tests; agent: Hepatitis B virus; endpoint: EC50

Rows are shuffled and stem from different studies. An empty or dashed field is not shown. ECn is the concentration giving n% inhibition of infection, replication or growth.

{"smiles": "Cc1cn([C@H]2O[C@@H](CO)[C@H](O)[C@H]2F)c(=O)[nH]c1=O", "strain or isolate": "WILD TYPE", "value": "0.83 µM"}
{"smiles": "Nc1ncnc2c1ncn2C[C@@H](CF)OCP(=O)(O)O", "method": "hybridisation", "cells": "HepG2 2.2.15", "value": "1.2 µM"}
{"smiles": "C[C@H]1[C@H](C)C[C@@H](C(=O)O[C@@H]2O[C@H](CO[C@@H]3O[C@H](CO)[C@@H](O[C@@H]4O[C@H](C)[C@H](O)[C@@H](O)[C@H]4O)[C@H](O)[C@H]3O)[C@@H](O)[C@H](O)[C@H]2O)C2CC[C@]3(C)C(=CC[C@@H]4[C@@]5(C)C[C@@H](O)[C@H](O)[C@@](C)(CO)[C@@H]5CC[C@]43C)[C@H]21", "conditions": "7 d", "method": "antigen", "cells": "HepG2.2.15", "value": "84.2 µM"}
{"smiles": "COc1ccc2cc1Oc1ccc(cc1)C[C@H]1c3c(cc4c(c3Oc3cc5c(cc3OC)CCN(C)[C@@H]5C2)OCO4)CCN1C", "method": "ELISA", "cells": "HepG2", "value": "2.14 µM"}
{"smiles": "Nc1nc2c(ncn2CCC(CO)CO)c(=O)[nH]1", "strain or isolate": "Mutations L526M M550V", "cells": "HepG2", "value": "370 µM"}
{"smiles": "Nc1nc(N)c2ncn([C@H]3CO[C@@H](CO)O3)c2n1", "strain or isolate": "DUAL", "value": "62 µM"}
{"smiles": "Nc1ccn([C@@H]2CS[C@H](CO)O2)c(=O)n1", "strain or isolate": "Genotype A", "method": "antigen / luminescence", "value": "0.17 µM"}
{"smiles": "CCC[N+](O)(CCC)CCc1c[nH]c2ccccc12", "method": "PCR / fluorescence", "cells": "HepG2.2.15", "value": ">100 µM"}
{"smiles": "CC1=C(O)C(=O)C=C2C1=CC=C1[C@@]2(C)CC[C@@]2(C)[C@@H]3C[C@](C)(C(=O)O)CC[C@]3(C)CC[C@]12C", "method": "ELISA / antigen", "cells": "HepG2 2.2.15", "value": "12.7 µM"}
{"smiles": "Nc1ncnc2c1ncn2CC(O)P(=O)(O)O", "cells": "HB611", "value": ">400 µM"}
{"smiles": "C=C1CC[C@@H](O)[C@]2(C)CC[C@@H](C(C)C)[C@H](O)[C@@H]12", "method": "PCR", "cells": "HepG2.2.15", "value": "19.7 µM"}
{"smiles": "COC(=O)[C@]1(C)CC[C@]2(C)CC[C@]3(C)C4=CC=C5C(=CC(=O)C(O)=C5C)[C@]4(C)CC[C@@]3(C)[C@@H]2C1", "method": "ELISA / antigen", "cells": "HepG2 2.2.15", "value": "29.8 µM"}
{"smiles": "CNC(=O)C1(NC(=O)C(=O)c2c(C)c(C(=O)Nc3ccc(F)c(F)c3)n3c2CCC3)CC(F)(F)C1", "strain or isolate": "Genotype A", "method": "antigen / luminescence", "value": "0.009 µM"}
{"smiles": "Nc1ncnc2c1ncn2CCP(=O)(O)O", "cells": "HB611", "value": ">400 µM"}
{"smiles": "Nc1ccn([C@@H]2CS[C@H](CO)O2)c(=O)n1", "method": "ELISA / antigen", "cells": "HepG2 2.2.15", "value": "177.4 µM"}
{"smiles": "Nc1ccn(CCOCP(=O)(O)O)c(=O)n1", "cells": "HB611", "value": ">400 µM"}
{"smiles": "CC(C)(C)[N+](O)(CCc1c[nH]c2ccccc12)C(C)(C)C", "method": "PCR / fluorescence", "cells": "HepG2.2.15", "value": ">100 µM"}
{"smiles": "CC(C)OP(=O)(COCCn1cnc2c(N)ncnc21)OC(C)C", "cells": "HB611", "value": "17 µM"}
{"smiles": "C[C@@]1(C(=O)O)CC[C@]2(C)CC[C@]3(C)C4=CC(c5c[nH]c6ccc(F)cc56)c5cc(O)c(O)cc5[C@]4(C)CC[C@@]3(C)[C@@H]2C1", "method": "ELISA / antigen", "cells": "HepG2 2.2.15", "value": ">100 µM"}
{"smiles": "CC(OCP(=O)(O)O)[C@@H](O)n1cnc(=N)c2[nH]cnc21", "cells": "HB611", "value": "32 µM"}
{"smiles": "Cc1cn(C2CC=C(C(=O)O)O2)c(=O)[nH]c1=O", "method": "replicon", "cells": "HepG2", "value": "10 µg/mL"}
{"smiles": "CC1=C(O)C(=O)C=C2C1=CC=C1[C@@]2(C)CC[C@@]2(C)[C@@H]3C[C@](C)(C(=O)NC(C)C)CC[C@]3(C)CC[C@]12C", "method": "ELISA / antigen", "cells": "HepG2 2.2.15", "value": "17.2 µM"}
{"smiles": "CC[N+](O)(CC)CCc1c[nH]c2ccccc12", "method": "PCR / fluorescence", "cells": "HepG2.2.15", "value": ">100 µM"}
{"smiles": "O=c1ccc2ccc(O)cc2o1", "method": "ELISA / antigen", "cells": "HepG2.2.15", "value": "717 µM"}
{"smiles": "COc1ccc2[nH]cc(C3C=C4[C@@](C)(CC[C@@]5(C)[C@@H]6C[C@](C)(C(=O)O)CC[C@]6(C)CC[C@]45C)c4cc(O)c(O)cc43)c2c1", "method": "ELISA / antigen", "cells": "HepG2 2.2.15", "value": "67.3 µM"}
{"smiles": "Nc1ccn(C[C@@H](CO)OCP(=O)(O)O)c(=O)n1", "cells": "HB611", "value": "29 µM"}
{"smiles": "COc1ccc(Sc2nc(N)nc3c2ncn3CCOCP(=O)(OCC(F)(F)F)OCC(F)(F)F)cc1", "strain or isolate": "Mutation M552V", "cells": "Huh7", "value": "3.3 µM"}
{"smiles": "Nc1ncnc2c1ncn2CCCCP(=O)(O)O", "cells": "HB611", "value": "20 µM"}
{"smiles": "C=C(CCC=C(C)C)[C@H]1CC[C@]2(C)[C@@H]1[C@H](O)C[C@@H]1[C@@]3(C)CC[C@H](O)C(C)(C)[C@@H]3[C@@H](OC3OC(CO)C(O)C(O)C3OC3OC(C)C(O)C(O)C3O)C[C@]12C", "conditions": "2 d", "method": "PCR", "cells": "HepG2.2.15", "value": "5.1 µM"}
{"smiles": "CC[C@H]1OC(O[C@@H]2[C@@H]3[C@](C)(CC[C@H]2C(C)C)[C@H](O)CC[C@]3(C)O)[C@H](O)[C@@H](O)[C@@H]1O", "method": "PCR", "cells": "HepG2.2.15", "value": "12.01 µM"}
{"smiles": "CCCNC(=O)[C@]1(C)CC[C@]2(C)CC[C@]3(C)C4=CC=C5C(=CC(=O)C(O)=C5C)[C@]4(C)CC[C@@]3(C)[C@@H]2C1", "method": "ELISA / antigen", "cells": "HepG2 2.2.15", "value": "21.4 µM"}

The last 3 rows once more:

| smiles | strain or isolate | conditions | method | cells | value |
|---|---|---|---|---|---|
| C=C(CCC=C(C)C)[C@H]1CC[C@]2(C)[C@@H]1[C@H](O)C[C@@H]1[C@@]3(C)CC[C@H](O)C(C)(C)[C@@H]3[C@@H](OC3OC(CO)C(O)C(O)C3OC3OC(C)C(O)C(O)C3O)C[C@]12C | - | 2 d | PCR | HepG2.2.15 | 5.1 µM |
| CC[C@H]1OC(O[C@@H]2[C@@H]3[C@](C)(CC[C@H]2C(C)C)[C@H](O)CC[C@]3(C)O)[C@H](O)[C@@H](O)[C@@H]1O | - | - | PCR | HepG2.2.15 | 12.01 µM |
| CCCNC(=O)[C@]1(C)CC[C@]2(C)CC[C@]3(C)C4=CC=C5C(=CC(=O)C(O)=C5C)[C@]4(C)CC[C@@]3(C)[C@@H]2C1 | - | - | ELISA / antigen | HepG2 2.2.15 | 21.4 µM |